Biological target: HIV gp120 envelope glycoprotein, membrane-bound (HIV-1 (HXB2 clone)) (UniProt P04578)
Assay: cell-based or functional assay

CD4-zeta chimeric receptor F2 (from UniProt P01730 26-395; P20963 8-30; P20963 52-163)
IL2 (pg/ml), Jurkat clone F2/1A11 coincubated with env-expressing 293 cells #13: 222 pg/mL
IL2 (pg/ml), Jurkat clone F2/1A11 coincubated with env-expressing 293 cells #18: 206 pg/mL
IL2 (pg/ml), Jurkat clone F2/1D1 coincubated with env-expressing 293 cells #13: 81 pg/mL
IL2 (pg/ml), Jurkat clone F2/1D1 coincubated with env-expressing 293 cells #18: 95 pg/mL

CD4-zeta chimeric receptor F3 (from UniProt P01730 26-396; P01730 372-395; P20963 52-163)
IL2 (pg/ml), Jurkat clone F3/2.2 coincubated with env-expressing 293 cells #13: 18 pg/mL
IL2 (pg/ml), Jurkat clone F3/2.2 coincubated with env-expressing 293 cells #18: 28 pg/mL
IL2 (pg/ml), Jurkat clone F3/2.7 coincubated with env-expressing 293 cells #13: 3 pg/mL
IL2 (pg/ml), Jurkat clone F3/2.7 coincubated with env-expressing 293 cells #18: 6 pg/mL
specific lysis of Raji-gp120 targets by NK3.3 cells that carry the chimeric receptor, 51Cr release, effector:target 0.4:1 (% specific lysis above background): 20

Source: patent publication US6407221
